# System: P. falciparum female gametocytes
# Assay: P. falciparum female gametogenesis assay (Pf FGAA)
# [1] = unified cytotox / Pf FGAA IC50, <10-fold selectivity red, >10-fold green
# [2] = unified cytotox / IC50, <10-fold red, >10-fold green
# [3] = unified cytotox / Pf FGAA IC50, red: <10-fold selectivity, green: >10-fold
compound,measurement,setting,value
N#Cc1ccc(-c2ccc(C(=O)NCC3CCN(CCN4CCC(c5ccc6c(c5OCC(N)=O)CCCC6)CC4)CC3)cc2)cc1 [TCMDC-134563],Assay tox ratio Pf FGAA,[1],4.88
NCCCCNc1cc(-c2ccnc(Nc3cccc(Cl)c3)n2)ccn1 [TCMDC-134683],Assay tox ratio Pf FGAA,[1],0.46
Cc1cccc(Nc2nc(N[C@@H]3CCCNC3)nc3cc[nH]c(=O)c23)c1.O=C(O)C(F)(F)F [TCMDC-134835],Assay tox ratio Pf FGAA,[2],2.12
O=C(O)C(F)(F)F.O=c1[nH]ccc2nc(N[C@@H]3CCNC3)nc(Nc3cc(Cl)cc(Cl)c3)c12 [TCMDC-135052],Assay tox ratio Pf FGAA,[1],6.49
NCCCNc1nc(Nc2ccc(C(F)(F)F)cc2F)c2c(=O)[nH]ccc2n1.O=C(O)C(F)(F)F [TCMDC-135056],Assay tox ratio Pf FGAA,[1],5.83
COc1ccccc1CNc1ccnc(N2CC(Oc3ccc(F)cc3)C2)n1 [TCMDC-135118],Assay tox ratio Pf FGAA,[1],18.10
CC(C)(C)OC(=O)NCc1ccc(Nc2nnc(-c3cccc(C(=O)NCc4cc(C(F)(F)F)cc(C(F)(F)F)c4)c3)o2)cc1 [TCMDC-135229],Assay tox ratio Pf FGAA,[1],6.82
CN1CCN(Cc2ccc(-c3cc4c(Nc5ccc(OCc6cccc(F)c6)c(Cl)c5)ncnc4s3)[nH]2)CC1 [TCMDC-135458],Assay tox ratio Pf FGAA,[1],4.56
Cc1[nH]c(C)c(-c2ccc(CCc3ccc(F)cc3F)cc2)c(=O)c1Cl [TCMDC-135462],Assay tox ratio Pf FGAA,[2],7.52
CC(C)N1CCN(C(CN2CCN(CCCOc3ccc(-c4ccccc4)cc3)CC2)c2ccc(F)cc2)CC1.Cl (stereo not drawn) [TCMDC-135497],Assay tox ratio Pf FGAA,[1],1.62
CC(C)N1CCN(C(CN2CCN(CCCOc3ccccc3-c3ccccc3)CC2)c2ccc(F)cc2)CC1.Cl (stereo not drawn) [TCMDC-135499],Assay tox ratio Pf FGAA,[1],3.06
COc1ccc2ccccc2c1CCCCN1CCN(CC(c2ccc(F)cc2)N2CCC2)CC1.O=C(O)C(F)(F)F (stereo not drawn) [TCMDC-135867],Assay tox ratio Pf FGAA,[1],0.74
COc1cc(/C=C(\C2=NC(=O)CS2)c2nc3cccnc3n2C)ccc1O [TCMDC-135917],Assay tox ratio Pf FGAA,[1],29.44
CCn1c(-c2nonc2N)nc2c(-c3cccc(NC(=O)Nc4ccc(Cl)cc4)c3)ncc(OCCCN)c21.O=C(O)C(F)(F)F [TCMDC-136152],Assay tox ratio Pf FGAA,[1],6.43
CCn1c(-c2nonc2N)nc2c(-c3cccc(NC(=O)Nc4ccc(C(F)(F)F)cc4)c3)ncc(OCCCN)c21.O=C(O)C(F)(F)F [TCMDC-136179],Assay tox ratio Pf FGAA,[1],6.15
CCn1c(-c2nonc2N)nc2c(-c3cccc(NC(=O)Nc4ccc5c(c4)CCC5)c3)ncc(OCCCN)c21.O=C(O)C(F)(F)F [TCMDC-136191],Assay tox ratio Pf FGAA,[1],7.20
CCn1c(-c2nonc2N)nc2c(-c3cccc(NC(=O)NC45CC6CC(CC(C6)C4)C5)c3)ncc(OCCCN)c21.O=C(O)C(F)(F)F [TCMDC-136246],Assay tox ratio Pf FGAA,[1],4.47
CN(C)CCCNCc1cn(S(=O)(=O)c2ccccc2Cl)c2ccccc12.Cl [TCMDC-136302],Assay tox ratio Pf FGAA,[1],6.39
Cc1noc(C)c1-c1ccc2c(Nc3nccc4ccccc34)c(C(N)=O)cnc2c1 [TCMDC-136456],Assay tox ratio Pf FGAA,[1],2.50
Cc1cc(C(F)(F)F)cc(-n2ncc(-c3ccc(C(=O)NCc4ccccc4N)cc3)c2N)n1.O=C(O)C(F)(F)F [TCMDC-136658],Assay tox ratio Pf FGAA,[1],18.37
CN1CCN(Cc2ccc(OCc3cccc(COc4ccc(CN5CCN(C)CC5)cc4I)c3)c(I)c2)CC1.Cl [TCMDC-137239],Assay tox ratio Pf FGAA,[1],2.71
CCCCN(CCCC)CCCCNc1c2ccc(Cl)cc2nc2ccc(OC)cc12.Cl [TCMDC-137460],Assay tox ratio Pf FGAA,[1],2.41
COc1cc(CNCCCCCCNCc2cc(OC)c3ccccc3c2OC)c(OC)c2ccccc12.CS(=O)(=O)O [TCMDC-137502],Assay tox ratio Pf FGAA,[1],2.20
Clc1ccc(/N=C(/NCCCCCCCN/C(=N\c2ccc(Cl)cc2)Nc2ccc(Cl)cc2)Nc2ccc(Cl)cc2)cc1 [TCMDC-137529],Assay tox ratio Pf FGAA,[1],3.42
Clc1ccc(Nc2nc3ccc(Cl)cc3nc2Nc2ccc(Cl)cc2)cc1 [TCMDC-137772],Assay tox ratio Pf FGAA,[1],4.11
Clc1nc(Cl)c2c(ccn2Cc2ccccc2)n1 [TCMDC-137801],Assay tox ratio Pf FGAA,[1],68.59
Nc1nc(N)c2c(ccc3c2ccn3Cc2cccc(F)c2)n1 [TCMDC-137810],Assay tox ratio Pf FGAA,[2],0.08
N#Cc1ccc(Cn2ccc3c4c(N)nc(N)nc4ccc32)cc1 [TCMDC-137820],Assay tox ratio Pf FGAA,[2],0.00161
CCCCSc1c(CNCCCCCCNCc2ccc3ccccc3c2SCCCC)ccc2ccccc12.CS(=O)(=O)O [TCMDC-137825],Assay tox ratio Pf FGAA,[1],2.85
COc1c(CNCCCCCCNCc2c(OC)c(OC)c3ccccc3c2OC)c(OC)c2ccccc2c1OC.CS(=O)(=O)O [TCMDC-137837],Assay tox ratio Pf FGAA,[1],1.20
Nc1nc(N)c2c(ccc3[nH]c(-c4ccccc4Cl)nc32)n1 [TCMDC-137840],Assay tox ratio Pf FGAA,[1],0.52
CCOc1cc2ccccc2cc1CNCCCCCCNCc1cc2ccccc2cc1OCC.CS(=O)(=O)O [TCMDC-137940],Assay tox ratio Pf FGAA,[1],4.71
COc1cc2c(OC)cccc2cc1CNCCCCCCNCc1cc2cccc(OC)c2cc1OC.CS(=O)(=O)O [TCMDC-137945],Assay tox ratio Pf FGAA,[1],2.69
CCCOc1c(CCNCCCCNCCc2ccc3ccccc3c2OCCC)ccc2ccccc12.CS(=O)(=O)O [TCMDC-137950],Assay tox ratio Pf FGAA,[1],2.69
COc1c(CNCCCCCCNCc2cc(Cl)c3ccccc3c2OC)cc(Cl)c2ccccc12.CS(=O)(=O)O [TCMDC-137958],Assay tox ratio Pf FGAA,[1],3.92
COc1ccc(CCNCCCCNCCc2ccc(OC)c3ccccc23)c2ccccc12.CS(=O)(=O)O [TCMDC-137961],Assay tox ratio Pf FGAA,[1],4.44
CCCCOc1c(CNCCCCCCNCc2ccc3ccccc3c2OCCCC)ccc2ccccc12.CS(=O)(=O)O [TCMDC-137975],Assay tox ratio Pf FGAA,[1],1.48
COc1ccccc1-c1nc2c(ccc3nc(N)nc(N)c32)[nH]1 [TCMDC-137976],Assay tox ratio Pf FGAA,[1],2.53
CCCN(CCC)CCCN(CCCN(CCC)CCC)c1cc(C)nc(Nc2ccc3cc(Br)ccc3c2)n1.Cl [TCMDC-138006],Assay tox ratio Pf FGAA,[1],3.48
Cc1ccc(S(=O)(=O)N(CCCNCc2cccc(O)c2)c2ccccc2)cc1 [TCMDC-138022],Assay tox ratio Pf FGAA,[2],34.82
Cl.Clc1ccc(CNCCCCCCCNCc2ccc(Cl)c(Cl)c2)cc1Cl [TCMDC-138075],Assay tox ratio Pf FGAA,[1],6.57
COc1cc2nc(N3CCC(CNC(=O)c4ccc(-c5ccc(-c6noc(C)n6)cc5C)cc4)CC3)nc(N)c2cc1OC [TCMDC-138155],Assay tox ratio Pf FGAA,[1],4.54
COc1ccc(N2CCN(CCCCNCc3ccc(NC(=O)c4cc(Cl)cc(Cl)c4)cc3)CC2)c(OC)c1 [TCMDC-138226],Assay tox ratio Pf FGAA,[1],1.42
COc1cc2nc(Nc3ccc4c(ccn4Cc4ccccc4)c3)nc(Nc3ccc4c(ccn4Cc4ccccc4)c3)c2cc1OC [TCMDC-138237],Assay tox ratio Pf FGAA,[1],8.95
CN(C)CCNCc1ccc(-c2ccc3c(Nc4ccc(Cl)cc4F)ccnc3c2)o1 [TCMDC-138391],Assay tox ratio Pf FGAA,[1],0.52
Fc1cc(Cl)ccc1Nc1ccnc2cc(-c3ccc(CN4CCOCC4)o3)ccc12 [TCMDC-138393],Assay tox ratio Pf FGAA,[1],8.82
Cl.Fc1cc(Cl)ccc1Nc1ccnc2cc(-c3ccc(CN4CCNCC4)o3)ccc12 [TCMDC-138394],Assay tox ratio Pf FGAA,[1],6.32
CN(C)CCN(C)Cc1ccc(-c2ccc3c(Nc4ccc(Oc5ccccn5)cc4)ccnc3c2)o1 [TCMDC-138426],Assay tox ratio Pf FGAA,[1],2.62
CN(/N=C/C=C/c1ccc(Cl)cc1)c1nc(NCCc2ccc(O)cc2)nc(N2CCNCC2)n1 [TCMDC-138546],Assay tox ratio Pf FGAA,[1],6.73
Clc1ccc(Nc2nc(NCc3ccccc3)nc(N/N=C/c3ccccn3)n2)cc1 [TCMDC-138557],Assay tox ratio Pf FGAA,[3],53.35
Cl.O=C(NCCCCN1CCC(c2ccc3c(c2O)CCCC3)CC1)c1ccc(NC(=O)c2ccc(Cl)cc2)cc1 [TCMDC-138645],Assay tox ratio Pf FGAA,[3],2.55
CC(C)(C)c1ccc(CNCCOc2ccc(Nc3nnc(-c4ccc(-c5ncc[nH]5)cc4)o3)c3ccccc23)cc1.O=C(O)C(F)(F)F [TCMDC-138667],Assay tox ratio Pf FGAA,[3],9.58
CCc1ccc(C2CCN(CCCCNC(=O)c3ccc(NC(=O)c4ccc(Cl)cc4)cc3)CC2)c(OCCO)c1 [TCMDC-138703],Assay tox ratio Pf FGAA,[3],2.38
COc1cc2nc(N3CCC(CNC(=O)c4ccc(-c5ccc(C(F)(F)F)cc5)cc4)CC3)nc(N)c2cc1OC [TCMDC-138716],Assay tox ratio Pf FGAA,[3],5.79
COc1cc2nc(N3CCC(CNC(=O)c4ccc(-c5ccc(Cl)cc5)cc4)CC3)nc(N)c2cc1OC [TCMDC-138718],Assay tox ratio Pf FGAA,[3],4.74
COC(=O)c1ccc(-c2ccc(C(=O)NCC3CCN(c4nc(N)c5cc(OC)c(OC)cc5n4)CC3)cc2)cc1 [TCMDC-138721],Assay tox ratio Pf FGAA,[3],6.71
O=C(NCCCCN1CCC(c2ccc3c(c2OCCN2CCCC2)CCCC3)CC1)c1ccc(-c2ccc(C(F)(F)F)cc2)cc1 [TCMDC-138768],Assay tox ratio Pf FGAA,[3],2.72
O=C(Nc1ccc(-c2ccccc2)c(OCCN2CCNCC2)c1)c1ccc(-c2ccc(Cl)cc2)cc1 [TCMDC-138818],Assay tox ratio Pf FGAA,[3],3.60
O=C(NC1CCN(CCN2CCC(c3c[nH]c4ccccc34)CC2)CC1)c1ccc(-c2ccc(C(F)(F)F)cc2)cc1 [TCMDC-138845],Assay tox ratio Pf FGAA,[3],2.59
CC(C)Cn1cc(C2CCN(CCN3CCC(CNC(=O)c4ccc(-c5ccc(C#N)cc5)cc4)CC3)CC2)c2ccccc21 [TCMDC-138849],Assay tox ratio Pf FGAA,[3],4.67
CC(C)Cn1cc(C2CCN(CCN3CCC(CNC(=O)c4ccc(-c5ccc(C(F)(F)F)cc5)cc4)CC3)CC2)c2ccccc21 [TCMDC-138852],Assay tox ratio Pf FGAA,[3],5.47
O=C(NCC1CCN(CCN2CCC(c3cn(CCO)c4ccccc34)CC2)CC1)c1ccc(-c2ccc(C(F)(F)F)cc2)cc1 [TCMDC-138856],Assay tox ratio Pf FGAA,[3],1.83
O=C(O)C(F)(F)F.O=S(=O)(c1ccccc1)n1ccc2cc(Nc3ncnc4cc(C#C[C@H]5CCCN5)sc34)ccc21 [TCMDC-138913],Assay tox ratio Pf FGAA,[3],4.71
COc1cc2nc(-c3ccc(Br)cc3)cc(N)c2cc1OC [TCMDC-138933],Assay tox ratio Pf FGAA,[3],6.53
CCN1CCC2(c3cccc(OC)c3)Cc3nc4ccccc4c(-c4ccccc4)c3CC2C1 (stereo not drawn) [TCMDC-138968],Assay tox ratio Pf FGAA,[3],23.25
COc1ccc(NC(=O)c2ccc(OCCCCCCCOc3ccc(C(=O)Nc4ccc(OC)c(N5CCN(C)CC5)c4)cc3)cc2)cc1N1CCN(C)CC1.O=C(O)C(=O)O [TCMDC-139007],Assay tox ratio Pf FGAA,[3],3.14

# Source: publication PMC6753678, “Fueling Open Innovation for Malaria Transmission-Blocking Drugs: Hundreds of Molecules Targeting Early Parasite Mosquito Stages” (Frontiers in Microbiology, 2019)
